# Results reported in patent publication US6806265B2, “Non-nucleoside reverse transcriptase inhibitors” (priority 2002, dated 2004).
# Tests used:
# [1] = molecular target: HIV-1 RT double mutant K103N/Y181C (Human immunodeficiency virus type 1 group M subtype B, UniProt P03366, K702N/Y780C); conditions: read-out: IC50 K103N/Y181C
# [2] = tested on: HIV-1 double mutant K103N/Y181C; conditions: read-out: EC50 K103N/Y181C
# [3] = molecular target: HIV-1 wild type reverse transcriptase (Human immunodeficiency virus type 1 group M subtype B, UniProt P03366); conditions: read-out: IC50 WT RT
# HIV-1 wild type = conditions: read-out: EC50 WT RT
Structure (SMILES),IC50 [1] [nM],EC50 [2] [nM],IC50 ([3]; wild type RT) [nM],EC50 (HIV-1 wild type) [nM],IC50 [3] [nM]
CCN1c2ncc(CCOc3ccc(-c4ccc[n+]([O-])c4)cc3C)cc2C(=O)Nc2c(C)ccnc21,< 50,< 10,,,
CCN1c2ncc(CCOc3ccc(-c4ccc(C(=O)O)c(Cl)c4)cc3)cc2C(=O)N(C)c2cccnc21,50 to 100,> 50,< 50,10 to 50,
CCN1c2ncc(CCOc3ccc(-c4cncc(C(=O)O)c4)cc3C)cc2C(=O)N(C)c2cccnc21,< 50,,,,
CCOC(=O)c1csc(-c2ccc(OCCc3cnc4c(c3)C(=O)N(C)c3cccnc3N4CC)cc2)n1,> 100,,< 50,,
CCN1c2ncc(CCOc3ccc(-c4csc(C(=O)O)c4)cc3C)cc2C(=O)N(C)c2cccnc21,< 50,10 to 50,,< 10,< 50
CCN1c2ncc(CCOc3ccc(-c4ccc(C(=O)O)c[n+]4[O-])cc3C)cc2C(=O)N(C)c2cccnc21,< 50,10 to 50,< 50,10 to 50,
CCN1c2ncc(CCOc3ccc(-c4ccc(CC(=O)O)c(F)c4)cc3C)cc2C(=O)N(C)c2cccnc21,< 50,< 10,,< 10,
CCN1c2ncc(CCOc3ccc(-n4nc(C(=O)O)cc4C)cc3C)cc2C(=O)N(C)c2cccnc21,> 100,> 50,< 50,10 to 50,
Cc1cc(-c2ccc[n+]([O-])c2)ccc1OCCc1cnc2c(c1)C(=O)Nc1c(C)ccnc1N2C1CC1,50 to 100,10 to 50,,< 10,
CCN1c2ncc(CCOc3ccc(-c4ccc(C(=O)O)cn4)cc3C)cc2C(=O)N(C)c2cccnc21,< 50,10 to 50,< 50,,
CCN1c2ncc(CCOc3ccc(-c4ccncc4)cc3C)cc2C(=O)N(C)c2cccnc21,< 50,< 10,,< 10,< 50
CCN1c2ncc(CCOc3ccc(-c4cc(OC)c(O)c(C(=O)O)c4)cc3C)cc2C(=O)N(C)c2cccnc21,< 50,> 50,< 50,,
CCN1c2ncc(CCOc3ccc(-c4ccc(C(=O)O)nc4)cc3C)cc2C(=O)N(C)c2cccnc21,< 50,< 10,,< 10,

# Where two headings read alike, the source gives them in different places.
